Results of unrelated studies side by side (data: NIAID ChemDB).

All rows: growth or infection tests

Fold resistance has wild type as its base.

smiles	read by	endpoint	cell line	tested at	species	conditions	strain	changes	value
Nc1nc(N)c2ncn(CC(CO)OCP(=O)(O)O)c2n1	plaque count	EC50	HEL		Cytomegalovirus		AD169		100 µg/mL
CCN(CC)CCCn1c(Cn2nc3ccccc3n2)nc2cc(C(F)(F)F)ccc21		inhibition	HEP-2	4 µg/mL	Respiratory syncytial virus		LONG		83%
C(#Cc1cc2ccccc2s1)c1ccsc1	plaque count	EC50	3T3-L1		Mouse cytomegalovirus				0.187 µg/mL
Nc1ncnc2c1ccn2[C@@H]1O[C@H](CO)[C@@H](O)[C@H]1O	cytopathic effect	EC50	HeLa		Respiratory syncytial virus		58-8		1 µg/mL
O=c1[nH]cnc2c1ncn2[C@H]1CC[C@@H](CO)O1	ELISA	EC50	PBMC		HIV-2		1814		0.63 µM
CC1(C)N=C(N)N=C(N)N1c1ccc(Cl)cc1		inhibition	L929	0.8 µg/mL	Cryptosporidium parvum		Calf isolate		27.97%
O=C(Nc1ccc(C(F)(F)F)cc1)c1cc(Br)ccc1OP(=O)(Oc1ccccc1)Oc1ccccc1		MIC			Mycobacterium kansasii	7 d	My 235/80		2 µM
CC[C@H]1OC(=O)[C@H](C)[C@@H](O[C@H]2C[C@@](C)(OC)[C@@H](O)[C@H](C)O2)[C@H](C)[C@@H](O[C@@H]2O[C@H](C)C[C@H](N(C)C)[C@H]2O)[C@](C)(O)C[C@@H](C)C(=O)[C@H](C)[C@@H](O)[C@]1(C)O		MIC50			Haemophilus influenzae		44 strains		4 µg/mL
O=C1c2cc(Cl)ccc2OP(=O)(c2ccccc2)N1c1ccc(Cl)cc1		MIC			Mycobacterium kansasii	21 d	My 6509/96		16 µM
CC(C)N(CCNCCn1c(Cn2nc3ccccc3n2)nc2ccccc21)C(C)C		inhibition	HEP-2	4 µg/mL	Respiratory syncytial virus		LONG		100%
CO[C@@H]1[C@@H](O[C@@H]2O[C@H](C)[C@@H](O[C@H]3C[C@@](C)(O)[C@@H](O)[C@H](C)O3)[C@H](N(C)C)[C@H]2O)[C@@H](CC=O)C[C@@H](C)[C@@H](O[C@H]2CC[C@H](N(C)C)[C@H](C)O2)/C=C/C=C/C[C@@H](C)OC(=O)C[C@H]1O		EC50	L929		Cryptosporidium parvum		Calf isolate		>4 µg/mL
O=C(O)c1cc2oc3ccccc3c2cc1O	cytopathic effect	EC50	HELA-H1		Rhinovirus		TYPE 16		25 µM
O=C1c2ccccc2OP(=O)(c2ccccc2)N1c1ccccc1		MIC			Mycobacterium kansasii	14 d	My 6509/96		500 µM
Nc1cc(OC[C@H](CO)OCP(=O)(O)O)nc(N)n1	cytopathic effect	EC50			Punta Toro virus				>15 µM
C[C@@H](c1nc(-c2ccc(C#N)cc2)cs1)[C@](O)(Cn1cnnc1)c1ccc(F)cc1F		MIC			Candida albicans		Isogenic isolate 6 MDR1 (25X)		0.015 µg/mL
C(#Cc1ccc(C#Cc2ccccc2)s1)c1ccccc1	plaque count	EC50	3T3-L1		Mouse cytomegalovirus				0.094 µg/mL
CO[C@@H]1C[C@@H](C[C@H]2CC[C@H](C)[C@H]([C@@H](C)C(=O)O)O2)O[C@]2(O[C@](C)([C@H]3CC[C@@](C)([C@@H]4O[C@@H]([C@H]5O[C@@](O)(CO)[C@H](C)C[C@@H]5C)C[C@@H]4C)O3)C[C@H]2C)[C@@H]1C		EC50	L929		Cryptosporidium parvum		Calf isolate		<0.8 µg/mL
OC1c2ccccc2CCc2ccccc21	cytopathic effect	EC50	HELA-H1		Rhinovirus		TYPE 14		50 µM
Nc1ncnc2c1ncn2CCOCP(=O)(O)O	cytopathic effect	EC50	HEL		Varicella zoster virus		Oka CF1743-resistant		8.5 µM
C[C@@H]1CN(c2c(F)c(N)c3c(=O)c(C(=O)O)cn(C4CC4)c3c2F)C[C@H](C)N1		MIC			Streptococcus pneumoniae		1L1 (PARC mutation SER79PHE)		0.5 µg/mL
Cc1ccc(-c2ccc(C#CCCO)s2)s1	plaque count	EC50	3T3-L1		Mouse cytomegalovirus				0.003 µg/mL
O=C(Nc1ccc(Br)cc1)c1cc(Cl)ccc1OP(=O)(Oc1ccccc1)c1ccccc1		MIC			Mycobacterium kansasii	7 d	My 6509/96		8 µM
NC(=O)c1ncn([C@@H]2O[C@H](CO)[C@@H](O)[C@H]2O)n1	antigen	inhibition	VERO 76	10 µg/mL	Pichinde virus				100%
OCCC#Cc1cc2ccccc2s1	plaque count	EC50	3T3-L1		Mouse cytomegalovirus				>1 µg/mL
CCCCN(CCCC)CCC(O)c1cc2c(Cl)cc(Cl)cc2c2cc(C(F)(F)F)ccc12		inhibition	L929	20 µg/mL	Cryptosporidium parvum		Calf isolate		69.36%
CC1(C)S[C@@H]2[C@H](NC(=O)[C@H](N)c3ccc(O)cc3)C(=O)N2[C@H]1C(=O)O		MIC50			Haemophilus influenzae		44 strains		8 µg/mL
CC(C)(CO)C(=O)SCCOP(=O)(NCc1ccccc1)OC[C@H]1O[C@@H](n2cnc3c(=O)[nH]c(N)nc32)[C@](C)(O)[C@@H]1O	replicon	fold resistance	Replicon cells		Hepatitis C virus		GT1b	L28T	0.51
O=C(O)P(=O)(O)O	plaque count	EC50	HEL		Cytomegalovirus		DAVIS		10 µg/mL
C#CC[C@@H](C(=O)N[C@H](/C=C/C(=O)OCC)C[C@@H]1CCNC1=O)n1cccc(NC(=O)c2cc(C)on2)c1=O	cytopathic effect / XTT	EC50	H1-HELA		Rhinovirus		Serotype 84		0.028 µM
C[C@@H](O)C1=C[C@@H](n2cnc3c(N)ncnc32)[C@H](O)[C@@H]1O	plaque count	EC50	VERO		Parainfluenza virus		TYPE 2/CA GREER		0.47 µg/mL
C(C#Cc1ccccc1)#Cc1ccccc1	plaque count	EC50	3T3-L1		Mouse cytomegalovirus				0.75 µg/mL
Nc1cc(OCCOCP(=O)(O)O)nc(N)n1	cytopathic effect	EC50			Punta Toro virus				>190 µM
O=c1cnn([C@@H]2O[C@H](CO)[C@@H](O)[C@H]2O)c(=O)[nH]1	virus yield	EC50	VERO		Dengue virus		TYPE 2 (NGC)		<2.1 µg/mL
CO[C@H]1/C=C/O[C@@]2(C)Oc3c(C)c(O)c4c(O)c(c5c(c4c3C2=O)NC2(CCN(CC(C)C)CC2)N=5)=NC(=O)/C(C)=C\C=C\[C@H](C)[C@H](O)[C@@H](C)[C@@H](O)[C@@H](C)[C@H](OC(C)=O)[C@@H]1C		MBC			Mycobacterium avium complex		3350-4		1 µg/mL
O=C(Nc1ccc(Cl)c(Cl)c1)c1cc(Cl)ccc1OP(=O)(OCc1ccccc1)OCc1ccccc1		MIC			Mycobacterium kansasii	7 d	My 235/80		62.5 µM
COC(=O)/C=C/C#Cc1cccs1	plaque count	EC50	3T3-L1		Mouse cytomegalovirus				>1 µg/mL
CCCCc1cc2c(=O)c(C(=O)OC)c[nH]c2cc1OCc1ccccc1		inhibition	L929	20 µg/mL	Cryptosporidium parvum		Calf isolate		37%
Oc1ccc2oc3ccccc3c2c1	cytopathic effect	EC50	HELA-H1		Rhinovirus		TYPE 16		30 µM
CO/N=C(/C(=O)N[C@@H]1C(=O)N2C(C(=O)O)=C(COC(N)=O)CS[C@H]12)c1ccco1		MIC90			Haemophilus influenzae		44 strains		16 µg/mL
C[C@@]1(O)[C@@H](CO)O[C@@H](n2ccc(=O)[nH]c2=O)[C@@H]1O	cytopathic effect	EC50	HeLa		Respiratory syncytial virus		LONG		>500 µg/mL
CO[C@H]1/C=C/O[C@@]2(C)Oc3c(C)c(O)c4c(O)c(c5c(c4c3C2=O)NC2(CCN(CC(C)C)CC2)N=5)=NC(=O)/C(C)=C\C=C\[C@H](C)[C@H](O)[C@@H](C)[C@@H](O)[C@@H](C)[C@H](OC(C)=O)[C@@H]1C		MBC			Mycobacterium avium		211-5		16 µg/mL
C=C[C@@H]1C[C@]1(NC(=O)[C@@H]1C[C@@H](Oc2nccc3ccc(Br)cc23)CN1C(C)=O)C(=O)NS(=O)(=O)C1CC1	luciferase	EC50			Hepatitis C virus		1b C159S		>3 µM
CCN(CC)CCCn1c(Cn2nnc3ccccc32)nc2cc([N+](=O)[O-])ccc21		inhibition	HEP-2	4 µg/mL	Respiratory syncytial virus		LONG		91%
Cc1cn(C[C@@H](CO)OCP(=O)(O)O)c(=O)[nH]c1=O	plaque count	EC50	HEL		Cytomegalovirus		AD169		70 µg/mL
OCCC#Cc1ccc(-c2ccc(C#CCCO)s2)s1	plaque count	EC50	3T3-L1		Mouse cytomegalovirus				0.047 µg/mL
O=C(Nc1ccc(Cl)cc1)c1cc(Cl)ccc1OP(=O)(OCc1ccccc1)OCc1ccccc1		MIC			Mycobacterium kansasii	21 d	My 6509/96		32 µM
CC#Cc1ccc(-c2ccc(C(=O)OCC)s2)s1	plaque count	EC50	3T3-L1		Mouse cytomegalovirus				0.035 µg/mL
NC(=O)c1ncn([C@@H]2O[C@H](COP(=O)(O)O)[C@@H](O)[C@H]2O)n1	antigen	EC50	VERO 76		Pichinde virus				15.8 µg/mL
Nc1ncnc2c1ncn2CCOCP(=O)(O)O	cytopathic effect	EC50			Punta Toro virus				>185 µM
Nc1ncnc2c1ncn2CCOCP(=O)(O)O	plaque count	EC50	HEL		Cytomegalovirus		DAVIS		25 µg/mL
O=C(Nc1ccc(Cl)cc1)c1cc(Cl)ccc1OP(=O)(Oc1ccccc1)c1ccccc1		MIC			Mycobacterium kansasii	14 d	My 235/80		8 µM
NC(=O)c1[nH]nc([C@@H]2O[C@H](CO)[C@@H](O)[C@H]2O)c1O	cytopathic effect	EC50	HeLa		Respiratory syncytial virus		58-7		0.1 µg/mL

4 of the rows above, restated:

Oc1ccc2oc3ccccc3c2c1 ; read by: cytopathic effect ; endpoint: EC50 ; cell line: HELA-H1 ; species: Rhinovirus ; strain: TYPE 16 ; value: 30 µM
O=C1c2ccccc2OP(=O)(c2ccccc2)N1c1ccccc1 ; endpoint: MIC ; species: Mycobacterium kansasii ; conditions: 14 d ; strain: My 6509/96 ; value: 500 µM
C[C@@H](c1nc(-c2ccc(C#N)cc2)cs1)[C@](O)(Cn1cnnc1)c1ccc(F)cc1F ; endpoint: MIC ; species: Candida albicans ; strain: Isogenic isolate 6 MDR1 (25X) ; value: 0.015 µg/mL
Nc1ncnc2c1ncn2CCOCP(=O)(O)O ; read by: cytopathic effect ; endpoint: EC50 ; species: Punta Toro virus ; value: >185 µM

A number after MIC or MFC names an inhibition level or a share of isolates. ECn is the concentration giving n% inhibition of infection, replication or growth. Lines come from different laboratories, so protocols vary. Blank or dashed fields: not listed here. Inhibition is in % at the dose shown (toxicity tests: loss of growth or viability).